{
  "source": "patent US11000571B2",
  "about": "(priority 2016, dated 2021)",
  "test_system": "intracerebral hemorrhage (“ICH”) mouse model",
  "assay": "Intracerebral hemorrhage (ICH) mouse model, 28-point neurological scale",
  "format": "in vivo, C57BL/6J mice",
  "settings": "high dose (32 mg/kg); 24 hours",
  "data": [
    {"substance": "(Aib)HGGGWGQ(Aib)HGGGWGQ", "values": [
      {"measurement": "sensory response component of 28-point scale", "result": "improved at statistically significant levels"}
    ]}
  ]
}
